Measured values from several laboratories, pooled; numbers as filed in NIAID ChemDB.

All rows: growth or infection tests; organism: HIV-1; measure: inhibition

Rows are shuffled and stem from different studies. Percent inhibition refers to the dose given; in toxicity tests it is the harm to the cells. Blank or dashed fields: not listed here.

SMILES,mutations,read by,conditions,tested at,cells,strain,value
Cc1cn([C@H]2C[C@H](N=[N+]=[N-])[C@@H](CO)O2)c(=O)[nH]c1=O,,p24 / ELISA,,0.003 µg/mL,HuT-78 + HUT 78,IIIB,90%
O[C@H]1[C@H](O)[C@H](O)CN2CC[C@H](O)[C@H]12,,syncytia,,1000 µM,JM,GB8,44%
CCC[C@@]1(CCc2ccccc2)CC(O)=C([C@H](CC)c2cccc(NS(=O)(=O)c3ccc(C(F)(F)F)cn3)c2)C(=O)O1,,p24,,0.32 µM,PBMC,Isolate UJ00009,90%
CCCCCCCCCc1ccc(OCCOCCOCCOCCOCCOCCOCCOCCOCCO)cc1,,p24 / ELISA,,10 µg/mL,MT-4,IIIB,100%
CC(=O)O[C@@H]1C(=O)C2=C(C(=O)C[C@H]3C(C)(C)[C@@H](O)CC[C@]23C)[C@]2(C)C(=O)C[C@H]([C@@H](C)CC(=O)C[C@@H](C)C(=O)O)[C@@]12C,,cytopathic effect / microscopy,,1000 µM,MT-4,,0%
OC[C@H]1[C@@H](O)[C@H](O)[C@H]2[C@@H](O)CCN21,,syncytia,,1000 µM,JM,GB8,0%
C[C@H](CC(=O)C[C@@H](C)[C@H]1CC(=O)[C@@]2(C)C3=C(C(=O)C[C@]12C)[C@@]1(C)CC[C@H](O)C(C)(C)[C@@H]1C[C@@H]3O)C(=O)O,,cytopathic effect / microscopy,,1000 µM,MT-4,,0%
COc1cc([C@@H]2c3cc4c(cc3[C@H](O)[C@H]3COC(=O)[C@H]23)OCO4)cc(OC)c1OC,,syncytia,,0.007 µM,H9,IIIB,84%
CCN(CC)CCNS(=O)(=O)c1ccc(-c2c3nc(c(-c4ccc(S(=O)(=O)NCCN(CC)CC)cc4)c4ccc([nH]4)c(-c4ccc(S(=O)(=O)NCCN(CC)CC)cc4)c4nc(c(-c5ccc(S(=O)(=O)NCCN(CC)CC)cc5)c5ccc2[nH]5)C=C4)C=C3)cc1,,p24,7 d,5 µM,HUT/CCR5 + HUT,BaL,33%
CC(C)(C)OC(=O)N[C@@H](Cc1ccccc1)[C@@H](O)[C@@H](NCc1ccccc1)C(=O)NCc1ccccc1,,cytopathic effect / MTT,,3 µM,MT-4,IIIB,0%
CCC1=C(CC)c2cc3[n-]c(cc4[n-]c(cc5nc(cc1n2)C(CC)=C5CC)c(CC)c4CC)c(CC)c3CC.[O]=[V+2],,p24,7 d,5 µM,HUT/CCR5 + HUT,BaL,42%
CCc1c(C)[nH]c(=O)c([N+](=O)[O-])c1Sc1cc(C)cc(C)c1,,RT activity,,10 µM,,Isolated virion,100%
Cc1ncnc(C)c1C(=O)N1CCC(C)(N2CCN([C@@H](Cc3ccccc3)c3ccc(C(F)(F)F)cc3)[C@@H](C)C2)CC1,,,,0.00027 µM,PBMC,JV1083 Clinical isolates,90%
CC(C)(C)NC(=O)[C@@H]1C[C@@H]2CCCC[C@@H]2CN1C[C@@H](O)[C@H](Cc1ccccc1)NC(=O)[C@H](CC(N)=O)NC(=O)c1ccc2ccccc2n1,,p24,,2 µM,Macrophage + Monocytes/macrophages,BaL,98%
COc1ccc(C[C@H]2COC(=O)[C@@H]2Cc2ccc(O[C@@H]3O[C@H](CO)[C@@H](O)[C@H](O)[C@H]3O)c(OC)c2)cc1OC,,RT activity,,5 µM,H9,IIIB,86%
Cc1cn([C@H]2C[C@H](N=[N+]=[N-])[C@@H](CO)O2)c(=O)[nH]c1=O,,p24,,0.0039 µM,MT-4,IIIB,55.06%
CCOC(=O)[C@H](CS)NC(=O)CC[C@H](N)C(=O)O,,p24,,1600 µM,H9,NL4-3,100%
CC(C)C[C@H](NC(=O)[C@H](Cc1ccccc1)NC(=O)CNC(=O)CNC(=O)[C@@H](N)Cc1ccc(O)cc1)C(=O)O[C@@H]1O[C@H](CO)[C@@H](O)[C@H](O)[C@H]1O,,syncytia / RT activity,,100 µM,PBL,,25%
C[C@H](CC(=O)C[C@@H](C)[C@H]1CC(=O)[C@@]2(C)C3=C(C(=O)C[C@]12C)[C@@]1(C)CCC(=O)C(C)(C)[C@@H]1C[C@@H]3O)C(=O)O,,cytopathic effect / microscopy,,1000 µM,MT-4,,0%
C[C@]12CC[C@@H]3c4ccc(O)cc4CC[C@H]3[C@@H]1CC[C@@H]2O,,p24 / ELISA,,0.003 µM,PBMC,BaL,40%
Cc1cn([C@H]2C[C@H](N=[N+]=[N-])[C@@H](CO)O2)c(=O)[nH]c1=O,,p24,,0.04 µM,MT-4,IIIB,65%
Nc1ncnc2c1ncn2[C@H]1CC[C@@H](CO)O1,,virus yield,,100 µM,U-937,LAV-1,>100%
CN1CC[C@@H](c2ccccc2)[C@H](COc2ccc3c(c2)OCCO3)C1,,p24,,0.8 µg/mL,MOLT-3,IIIB,7%
O=C(O)P(=O)(O)O,,RT activity,21 d,32 µM,PBL,IIIB,72%
CC(C)C[C@@H]1[C@H](O)[C@@H](O)[C@@H](CC(C)C)N(Cc2cccc(C(=O)Nc3nc4ccccc4[nH]3)c2)C(=O)N1Cc1cccc(C(=O)Nc2nc3ccccc3[nH]2)c1,PR-I84V,,3 d,0.02 µM,MT-2,RF,90%
Cc1ccnc2c1NC(=O)c1cccnc1N2C1CC1,,syncytia,,0.1 µM,HT4 + HT4-6C,LAV-1,71%
O=S(=O)([O-])[O-].[O]=[V+2],,p24,7 d,5 µM,HUT/CCR5 + HUT,BaL,36%
CC(C)C[C@H](NC(=O)[C@H](Cc1ccccc1)NC(=O)CNC(=O)CNC(=O)[C@@H](N)Cc1ccc(O)cc1)C(=O)N[C@@H]1O[C@H](CO)[C@@H](O)[C@H](O)[C@H]1O,,syncytia / RT activity,,100 µM,PBL,,25%
COc1ccc(CN[C@@H](C(=O)N[C@H](CO)c2ccccc2)[C@H](O)[C@H](Cc2ccccc2)NC(=O)OC(C)(C)C)cc1,,cytopathic effect / MTT,,3 µM,MT-4,IIIB,0%
CC(C)C[C@H](NC(=O)[C@H](Cc1ccccc1)NC(=O)CNC(=O)CNC(=O)[C@@H](N)Cc1ccc(O)cc1)C(=O)N[C@@H]1[C@@H](O)[C@H](O)[C@@H](CO)O[C@H]1O,,syncytia / RT activity,,100 µM,PBL,,28%
OCCN1CCN(CC/C=C2/c3ccccc3Sc3ccc(C(F)(F)F)cc32)CC1,,p24,,2 µg/mL,MOLT-3,IIIB,43%
CCCC(=O)O[C@H]1CN2CC[C@H](O)[C@@H]2[C@@H](O)[C@@H]1O,,,,4 µM,H9,U455,90%
COc1cc([C@H]2OC[C@H]3[C@@H]2CO[C@@H]3c2ccc3c(c2)OCO3)cc(OC)c1OC,,RT activity,,10.6 µM,H9,IIIB,71%
[Se],,RT activity,,0.05 µg/mL,U1,LAV,24%
COc1ccc(OC[C@H]2CN(C)CC[C@@H]2c2ccccc2)cc1,,p24,,4 µg/mL,MOLT-3,IIIB,0%
CC(C)(C)NC(=O)[C@@H]1C[C@@H]2CCCC[C@@H]2CN1C[C@@H](O)[C@H](Cc1ccccc1)NC(=O)O[C@@H]1CO[C@@H]2OCC[C@@H]21,,antigen,,0.2 µM,MT-4,IIIB,95%
CC(=O)O[C@H]1C[C@@]2(C)[C@@H](C[C@@H](O)[C@H]3[C@@]4(C)CC[C@@H](O)[C@@H](C)[C@@H]4CC[C@@]32C)/C1=C(\CCC=C(C)C)C(=O)O,,syncytia,,100 µg/mL,C8166,H9RF,100%
CC(C)C[C@H](NC(=O)[C@H](Cc1ccccc1)NC(=O)CNC(=O)CNC(=O)[C@@H](N)Cc1ccc(O[C@@H]2O[C@H](CO)[C@@H](O)[C@H](O)[C@H]2O)cc1)C(=O)O,,syncytia / RT activity,,100 µM,PBL,,21%
c1cc(CN2CCCNCCNCCCNCC2)ccc1CN1CCCNCCNCCCNCC1,,p24,,0.1 µM,U87 (CD4+ CXCR4+) + U87,HE R5X4,92%
CO[C@@H]1C=C2C3CC[C@H]([C@H](C)/C=C/C(C)C(C)C)[C@@]3(C)CCC2[C@@]2(C)CC[C@H](O)C[C@]12O,,cytopathic effect / microscopy,,31.3 µM,MT-4,,0%
CN(C)CCC=C1c2ccccc2CCc2ccccc21,,p24,,10 µg/mL,MOLT-3,IIIB,6%
CC(C)(O)c1cccc(CN2C(=O)N(Cc3cccc(C(C)(C)O)c3)[C@H](Cc3ccccc3)[C@H](O)[C@@H](O)[C@H]2Cc2ccccc2)c1,PR-V82F/184V,p24,,5.7785 µM,MT-2/MT-4 + MT-2,HXB2,90%
CC(C)(C)OC(=O)N[C@@H](Cc1ccccc1)[C@@H](O)[C@@H](NCc1ccc(OCCN2CCOCC2)cc1)C(=O)N[C@H]1c2ccccc2C[C@H]1O,,cytopathic effect / MTT,,3 µM,MT-4,IIIB,0%
Cc1cn([C@H]2C[C@H](N=[N+]=[N-])[C@@H](CO)O2)c(=O)[nH]c1=O,,,,1 µM,PBL,JR-CSF,95%
CC(=O)OC[C@@H]1C[C@H](N=[N+]=[N-])C[C@H](n2cc(C)c(=O)[nH]c2=O)O1,,,,333 µM,MT-4,IIIB,0%
CN1CC[C@H](c2ccccc2)[C@@H](COc2ccc3c(c2)OCCO3)C1,,syncytia,,4 µg/mL,MOLT-3,IIIB,6%
O=C1N(C/C=C/c2cn[nH]c2)[C@H](Cc2ccccc2)[C@H](O)[C@@H](O)[C@@H](Cc2ccccc2)N1CC1CC1,,,,0.82 µM,MT-2,RF,90%
CC(C)(C)OC(=O)N[C@@H](Cc1ccccc1)[C@@H](O)[C@@H](NCc1ccc(CNC(=O)CCc2nc3ccccc3[nH]2)cc1)C(=O)NCc1ccccc1,,cytopathic effect / MTT,,3 µM,MT-4,IIIB,0%
O[C@H]1OC[C@H](Cc2ccc3c(c2)OCO3)[C@H]1Cc1ccc2c(c1)OCO2,,syncytia,,12.7 µM,H9,IIIB,86%
C[C@H]1/C=C/[C@@]2(C)CC[C@@H](C(C)(C)O)[C@@H]2[C@@H](O)C[C@](C)(O)/C=C/C1,,p24,,25 µM,PBMC,95BRSP007 R5X4,88%
c1cc(CN2CCCNCCNCCCNCC2)ccc1CN1CCCNCCNCCCNCC1,,p24,,0.5 µM,PBMC,JR-FL CLADE B R5,0%
CC(=O)N[C@H]1[C@H](OCCCCCCOC(=O)OC[C@H]2O[C@@H](n3cc(C)c(=O)[nH]c3=O)C[C@@H]2N=[N+]=[N-])O[C@H](CO)[C@@H](O)[C@@H]1O,,RT activity,,20 µg/mL,CEM-113 + CEM/C113,,90%
Cc1ccnc2c1NC(=O)c1cccnc1N2C1CC1,,β-galactosidase,,5 µg/mL,MAGI,,85%
CCOCn1c(Cc2ccccc2)c(C(C)C)c(=O)[nH]c1=O,,cytopathic effect / MTT,,0.038 µM,MT-4,IIIB,70%
Fc1ccc([C@@H]2CCNC[C@H]2COc2ccc3c(c2)OCCO3)cc1,,syncytia,,4 µg/mL,MOLT-3,IIIB,29%

Again, the opening 7 rows:

| SMILES | mutations | read by | conditions | tested at | cells | strain | value |
|---|---|---|---|---|---|---|---|
| Cc1cn([C@H]2C[C@H](N=[N+]=[N-])[C@@H](CO)O2)c(=O)[nH]c1=O |  | p24 / ELISA |  | 0.003 µg/mL | HuT-78 + HUT 78 | IIIB | 90% |
| O[C@H]1[C@H](O)[C@H](O)CN2CC[C@H](O)[C@H]12 |  | syncytia |  | 1000 µM | JM | GB8 | 44% |
| CCC[C@@]1(CCc2ccccc2)CC(O)=C([C@H](CC)c2cccc(NS(=O)(=O)c3ccc(C(F)(F)F)cn3)c2)C(=O)O1 |  | p24 |  | 0.32 µM | PBMC | Isolate UJ00009 | 90% |
| CCCCCCCCCc1ccc(OCCOCCOCCOCCOCCOCCOCCOCCOCCO)cc1 |  | p24 / ELISA |  | 10 µg/mL | MT-4 | IIIB | 100% |
| CC(=O)O[C@@H]1C(=O)C2=C(C(=O)C[C@H]3C(C)(C)[C@@H](O)CC[C@]23C)[C@]2(C)C(=O)C[C@H]([C@@H](C)CC(=O)C[C@@H](C)C(=O)O)[C@@]12C |  | cytopathic effect / microscopy |  | 1000 µM | MT-4 |  | 0% |
| OC[C@H]1[C@@H](O)[C@H](O)[C@H]2[C@@H](O)CCN21 |  | syncytia |  | 1000 µM | JM | GB8 | 0% |
| C[C@H](CC(=O)C[C@@H](C)[C@H]1CC(=O)[C@@]2(C)C3=C(C(=O)C[C@]12C)[C@@]1(C)CC[C@H](O)C(C)(C)[C@@H]1C[C@@H]3O)C(=O)O |  | cytopathic effect / microscopy |  | 1000 µM | MT-4 |  | 0% |